Compound potency records, mixed from different reports. Data source: NIAID ChemDB in PubChem.

Common to all: enzyme or target tests

ICn: concentration for n% inhibition. An empty or dashed field is not shown. Conditions beyond the fields shown may differ between rows. Percent inhibition refers to the dose given; in toxicity tests it is the harm to the cells.

O=C(Nc1nnc(NCC(c2ccccc2)c2ccccc2)s1)c1ccc(F)cc1F ; target: Polymerase ; endpoint: IC50 ; species: Human cytomegalovirus ; value: >25 µM
O=C(O)c1ccc(N2C(=O)C(=Cc3ccc(-c4ccc(F)c(F)c4)o3)SC2=S)cc1 ; target: NS5 polymerase ; endpoint: IC50 ; species: Bovine viral diarrhea virus ; value: ≤1 µM
O=C(/C=C/c1ccccc1Cl)Nc1nnc(NCCc2cccs2)s1 ; target: Polymerase ; endpoint: IC50 ; species: Human cytomegalovirus ; value: >25 µM
O=C(O)c1ccc(N2C(=O)C(=Cc3ccc(-c4cc(F)cc(F)c4)o3)SC2=S)cc1 ; target: NS5 polymerase ; endpoint: IC50 ; species: Bovine viral diarrhea virus ; value: ≤1 µM
COc1cc(N(C)Cc2csc3nc(N)nc(N)c23)cc(OC)c1OC ; strain: TYPE 2 ; target: Dihydrofolate reductase ; endpoint: IC50 ; species: Cryptosporidium parvum ; value: >10 µM
O=C(CCCCCl)Nc1nnc(NCc2ccc(F)cc2)s1 ; target: Polymerase ; endpoint: IC50 ; species: Human cytomegalovirus ; value: >25 µM
COc1ccc(N2CCN(c3cncc(-c4ccccc4C)n3)CC2)cc1OC ; target: UL97 kinase ; endpoint: IC50 ; species: Cytomegalovirus ; value: <100 µM
COc1cc(CN(C)c2ccc3nc(N)nc(N)c3c2Cl)cc(OC)c1OC ; strain: TYPE 2 ; target: Dihydrofolate reductase ; endpoint: IC50 ; species: Cryptosporidium parvum ; value: 0.038 µM
Clc1ccc(N2CCN(c3cncc(-c4csc5ccccc45)n3)CC2)cc1 ; target: UL97 kinase ; dose: 1 µM ; endpoint: inhibition ; species: Cytomegalovirus ; value: <50%
Cc1sc2nc(N)nc(N)c2c1-c1ccc(Cl)cc1 ; strain: TYPE 2 ; target: Dihydrofolate reductase ; endpoint: IC50 ; species: Cryptosporidium parvum ; value: >10 µM
COc1ccc(N2CCN(c3cncc(-c4ccc(C#N)cc4)n3)CC2)cc1 ; target: UL97 kinase ; endpoint: IC50 ; species: Cytomegalovirus ; value: <10 µM
O=C(/C=C/c1ccccc1)Nc1nnc(NCc2ccc(F)cc2)s1 ; target: Polymerase ; endpoint: IC50 ; species: Human cytomegalovirus ; value: >25 µM
Clc1cccc(N2CCN(c3cncc(-c4ccc5ccccc5c4)n3)CC2)c1 ; target: UL97 kinase ; endpoint: IC50 ; species: Cytomegalovirus ; value: <100 µM
Nc1nc(N)c2c(ccc3ccc(Cl)cc32)n1 ; strain: TYPE 1 ; target: Dihydrofolate reductase ; endpoint: IC50 ; species: Cryptosporidium parvum ; value: 0.023 µM
O=C(O)CCN1C(=O)C(=Cc2ccc(-c3cc4ccccc4c4ccccc34)o2)SC1=S ; target: NS5 polymerase ; endpoint: IC50 ; species: Bovine viral diarrhea virus ; value: ≤1 µM
COc1ccc(CC2CCc3nc(N)nc(N)c3C2)cc1 ; strain: TYPE 2 ; target: Dihydrofolate reductase ; endpoint: IC50 ; species: Cryptosporidium parvum ; value: 1.1 µM
CCCCCCCCCCCNc1nnc(NC(=O)c2ccc(C)cc2)s1 ; target: Polymerase ; endpoint: IC50 ; species: Human cytomegalovirus ; value: >25 µM
CCOc1cccc2nc(N)nc(N)c12 ; strain: TYPE 2 ; target: Dihydrofolate reductase ; endpoint: IC50 ; species: Cryptosporidium parvum ; value: 0.35 µM
COc1ccc(-c2cncc(N3CCN(c4ccc(C(F)(F)F)cc4)CC3)n2)cc1OC ; target: UL97 kinase ; endpoint: IC50 ; species: Cytomegalovirus ; value: <100 µM
Nc1nc(N)c2c(n1)CCC(Cc1cccc(C(F)(F)F)c1)C2 ; strain: TYPE 1 ; target: Dihydrofolate reductase ; endpoint: IC50 ; species: Cryptosporidium parvum ; value: 0.45 µM
O=C(O)c1ccc(N2C(=O)C(=Cc3ccc(-c4cc(C(F)(F)F)cc(C(F)(F)F)c4)o3)SC2=S)cc1 ; target: NS5 polymerase ; endpoint: IC50 ; species: Bovine viral diarrhea virus ; value: ≤1 µM

Again, the opening 2 rows:

| structure | strain | target | dose | endpoint | species | value |
|---|---|---|---|---|---|---|
| O=C(Nc1nnc(NCC(c2ccccc2)c2ccccc2)s1)c1ccc(F)cc1F | - | Polymerase | - | IC50 | Human cytomegalovirus | >25 µM |
| O=C(O)c1ccc(N2C(=O)C(=Cc3ccc(-c4ccc(F)c(F)c4)o3)SC2=S)cc1 | - | NS5 polymerase | - | IC50 | Bovine viral diarrhea virus | ≤1 µM |